# Percent effect of library compounds

The values are deposited in ChEMBL (CHEMBL3988442, “University of Dundee, Small-Polar-MMV Screening Library” (2021)).

Mtb glucose medium: 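Growth of Mycobacterium tuberculosis over 3 days (7H9 medium with glucose and tyloxapol); the read-out is not stated. Compounds at 500 µM. Higher reads as more growth inhibition (inferred: compounds with an IC50 in retests scored well above the rest). Size under these conditions: about 18,000 compounds, about 1,400 of them at 50% or above in at least one test.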
Mtb cholesterol medium: 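Whole-cell growth test on Mycobacterium tuberculosis, read after 4 days in a medium based on cholesterol and the lipid DPPC; the read-out is not stated. Tested at 500 µM. Higher reads as more growth inhibition (inferred: compounds with an IC50 in retests scored well above the rest). Of about 18,000 compounds tested this way, about 900 (5%) reached 50% or more in at least one test.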

The filed quantity is “Percent Effect” (%).
The controls that fix the scale are not given in the record; negative values are as filed.
The entries come from a sample that favours strong results.

CN(C)C(CNC(=O)c1ccccn1)c1ccsc1 (centres unmarked) gave Mtb glucose medium: 18.32%. O=C(CCc1ccoc1)Nc1cnccn1 read Mtb glucose medium: 48.76%. With CCn1cc(Br)c(=O)c(NC(=O)Cc2cccnc2)c1 the screen gave Mtb glucose medium: -0.3514%. Cc1cccn2cc(CCNS(C)(=O)=O)nc12 gave Mtb glucose medium: -3.124%. With COc1cc(C)ccc1OC(C)C(=O)NC(N)=O (centres unmarked) the screen gave Mtb glucose medium: 8.366%. With Cc1cc(NC(=O)NCCCN2CCCC2=O)no1 the screen gave Mtb cholesterol medium: 2.868%. O=C(NC1CCCCNC1=O)c1cc(Br)c[nH]1 (centres unmarked) read Mtb glucose medium: -0.6769%.

CCc1nnsc1C(=O)NCc1cnn(C)c1 gave Mtb glucose medium: -5.44%. Result for CNCC(=O)Nc1ccc(Br)cc1C was Mtb cholesterol medium: 38.13%. NCC(CO)Cc1ccc(F)c(F)c1 (centres unmarked) read Mtb glucose medium: 26.42%. C=C(Br)CN1CCN(CCNC(=O)C2CCC2)CC1 read Mtb glucose medium: 53.08%. Result for Cc1noc(C)c1CN1CCOCC1(C)CO (centres unmarked) was Mtb cholesterol medium: 11.28%. For O=C(NCCO)c1ccc(-c2ccccc2)cc1 the result was Mtb glucose medium: 10.65%; Mtb cholesterol medium: 7.412%. CSCc1noc(CN(C)CCc2ccccn2)n1 read Mtb glucose medium: 24.03%.

With CS(=O)(=O)NCCNC(=O)C1CCN(S(C)(=O)=O)CC1 the screen gave Mtb cholesterol medium: -19.22%. With CC(O)CN(C)C1CCNCC1 (centres unmarked) the screen gave Mtb glucose medium: -2.354%. Cc1ccc(S(=O)(=O)Nc2cccc(C)n2)cc1 gave Mtb glucose medium: 20.29%. Result for CCC(NC(=O)c1cccc(=O)[nH]1)c1nc(C)c[nH]1 (centres unmarked) was Mtb glucose medium: 11.69%. CCCC(C#N)NC(=O)c1cnn(C)c1 (centres unmarked) read Mtb glucose medium: 8.452%; Mtb cholesterol medium: 2.221%. With COCc1nn(CCC2CCCC2)c(=O)o1 the screen gave Mtb glucose medium: 72.38%; Mtb cholesterol medium: 85.2%. With CSC(C)C(=O)N1CCOC(C)(C)C1 (centres unmarked) the screen gave Mtb glucose medium: -4.561%.

Result for COC(=O)CCCC(=O)N1CCC2(CCCC2)C1 was Mtb glucose medium: 53.13%. With Cc1cccc(CNC(=O)c2ccc(C#N)nc2)n1 the screen gave Mtb glucose medium: 18.24%. CSCC(=O)N1CCCC(c2nccn2C)C1 (centres unmarked) read Mtb cholesterol medium: -13.6%.